Here are results for 5 molecules from publication PMC10733469, “Antiviral activity of chrysin and naringenin against porcine epidemic diarrhea virus infection” (Frontiers in Veterinary Science, 2023).

SMILES strings stand for the structures.

In one data set the test system is PEDV DY. The data set can be described thus: Antiviral activity assay (MTT, virus inhibition rate), PEDV DY. To be noted: therapeutic index, ratio CC50 / IC50.
Another data set relates to PEDV CV777. The data set can be described thus: Antiviral activity assay (MTT, virus inhibition rate), PEDV CV777. To be noted: therapeutic index, ratio CC50 / IC50.
Data set [1] concerns foot-and-mouth disease virus (FMDV). To be noted: BHK-21 cells, viral and post-viral entry experiments, range of 10.00–51.81 μM; cited from earlier work.

Regarding `O=c1cc(-c2ccccc2)oc2cc(O)cc(O)c12` [Chrysin, chrysin], in the data set with PEDV DY, the “SI PEDV DY” value worked out at 33.63. Moreover, in the data set with PEDV CV777, the “SI PEDV CV777” value was 38.1.

Turning to `NC(=O)c1ncn([C@@H]2O[C@H](CO)[C@@H](O)[C@H]2O)n1` [Ribavirin, ribavirin, reference compound], the “SI PEDV DY” value in the data set with PEDV DY was 3.49. Also, the “SI PEDV CV777” value with PEDV CV777 is 2.82.

Consider `O=C1C[C@@H](c2ccc(O)cc2)Oc2cc(O)cc(O)c21` [Naringenin, naringenin], for which the “SI PEDV DY” value in the data set with PEDV DY is 13.73. Besides, the “SI PEDV CV777” value in the data set with PEDV CV777 came out at 14.08.

As to `COc1ccc(-c2cc(=O)c3c(O)cc(O)c(-c4cc(-c5cc(=O)c6c(O)cc(O)cc6o5)ccc4OC)c3o2)cc1` [isoginkgetin], the SI values result in data set [1] is given as “greater than 4”.

As for `O=c1cc(-c2ccc(O)c(O)c2)oc2cc(O)cc(O)c12` [luteolin], the SI values entry in data set [1] is on record as “greater than 4”.
